Results of unrelated studies side by side (data: NIAID ChemDB).

Common to all: tests in culture

A number after MIC or MFC names an inhibition level or a share of isolates. ECn is the concentration giving n% inhibition of infection, replication or growth. a–b is a range or a potency band. Conditions beyond the fields shown may differ between rows.

{"compound": "CC(=O)NC[C@H]1CN(c2ccc(-c3noc(C)n3)c(F)c2)C(=O)O1", "agent": "Enterococcus faecalis", "strain or isolate": "UC9217", "read-out": "MIC", "value": ">16 µg/mL"}
{"compound": "Cc1ccc(CCCOc2cc(C)c(-c3noc(C(F)(F)F)n3)c(C)c2)nn1", "agent": "Enterovirus", "cell line": "HeLa", "method": "cytopathic effect", "read-out": "EC50", "value": "0.033–0.659 µg/mL"}
{"compound": "CC[C@H]1OC(=O)[C@H](C)C(=O)[C@H](C)[C@@H](O[C@@H]2O[C@H](C)C[C@H](N(C)C)[C@H]2O)[C@](C)(OC)C[C@@H](C)C(=O)[C@H](C)[C@H]2N(CCCCn3cnc(-c4cccnc4)c3)C(=O)O[C@]12C", "agent": "Enterococcus faecium", "read-out": "MIC90", "value": "2–4 µg/mL"}
{"compound": "CC(=O)NC[C@H]1CN(c2ccc(-c3cnc(C(C)=O)s3)c(F)c2)C(=O)O1", "agent": "Enterococcus faecalis", "strain or isolate": "UC9217", "read-out": "MIC", "value": "0.5 µg/mL"}
{"compound": "C[C@@H]1CN(c2c(F)c(N)c3c(=O)c(C(=O)O)cn(C4CC4)c3c2F)C[C@H](C)N1", "agent": "Enterococcus faecium", "read-out": "MIC90", "value": "1–50 µg/mL"}
{"compound": "COC(=O)N1CC=C(c2ccc(C3=NO[C@H](CNC(=O)O)C3)cc2)CC1", "agent": "Enterococcus faecalis", "strain or isolate": "UC9217", "read-out": "MIC", "value": ">16 µg/mL"}
{"compound": "O=C1N(CCCCCCOc2ccc(C(F)(F)F)cc2)CCN1c1ccncc1", "agent": "Enterovirus", "strain or isolate": "7/(1743) genotype B", "cell line": "RD", "method": "plaque count", "read-out": "EC50", "value": "0.35 µM"}
{"compound": "O=C(Nc1cc(C(F)(F)F)cc(C(F)(F)F)c1)NN1CCOCC1", "agent": "Enterococcus faecalis", "strain or isolate": "STD44", "read-out": "MIC", "value": "164 µM"}
{"compound": "CC(=O)NC[C@H]1CN(c2ccc(NC(=O)c3ccc(C=O)o3)c(F)c2)C(=O)O1", "agent": "Enterococcus faecium", "strain or isolate": "UC12712 (vancomycin-resistant)", "read-out": "MIC", "value": "16 µg/mL"}
{"compound": "CCCc1ccc(CCCOc2ccc(-c3ccccc3)c(Br)c2)nn1", "agent": "Enterovirus", "cell line": "HeLa", "method": "cytopathic effect", "read-out": "EC50", "value": "0.033–0.659 µg/mL"}
{"compound": "O=C(NNC(=O)Nc1cc(C(F)(F)F)cc(C(F)(F)F)c1)Nc1ccccc1", "agent": "Enterococcus faecalis", "strain or isolate": "STD44", "read-out": "MIC", "value": ">200 µM"}
{"compound": "CC(=O)NC[C@H]1CN(c2ccc3c(c2)OCc2nccn2-3)C(=O)O1", "agent": "Enterococcus faecium", "strain or isolate": "L4001", "read-out": "MIC", "value": "0.25 µg/mL"}
{"compound": "COCc1ccc(CCCOc2cc(C)c(-c3noc(C)n3)c(C)c2)nn1", "agent": "Enterovirus", "cell line": "HeLa", "method": "cytopathic effect", "read-out": "EC50", "value": "0.033–0.659 µg/mL"}
{"compound": "CC(=O)NC[C@H]1CN(c2ccc(-c3ccsc3)c(F)c2)C(=O)O1", "agent": "Enterococcus faecalis", "strain or isolate": "UC9217", "read-out": "MIC", "value": "0.5 µg/mL"}
{"compound": "CC(=O)NC[C@H]1CN(c2ccc(NC(=O)c3cccnc3)c(F)c2)C(=O)O1", "agent": "Enterococcus faecium", "strain or isolate": "UC12712 (vancomycin-resistant)", "read-out": "MIC", "value": "32 µg/mL"}
{"compound": "CC(CCOc1ccc(-c2ccc(Cl)cc2)cc1)CCN1CCN(c2ccncc2)C1=O", "agent": "Enterovirus", "strain or isolate": "Clinical isolate 71 (2231)", "cell line": "RD", "method": "cytopathic effect", "read-out": "EC50", "value": "0.038 µM"}
{"compound": "CO/N=C/c1ccc(C(=O)Nc2ccc(N3C[C@H](CNC(C)=O)OC3=O)cc2F)o1", "agent": "Enterococcus faecium", "strain or isolate": "UC12712 (vancomycin-resistant)", "read-out": "MIC", "value": "16 µg/mL"}
{"compound": "CCNc1c(F)cc2c(=O)c(C(=O)O)cn(-c3cc(N)c(F)cc3F)c2c1C", "agent": "Enterococcus faecium", "strain or isolate": "ATCC51519", "read-out": "MIC", "value": "8 µg/mL"}
{"compound": "CC(=O)c1ccc(CCCOc2cc(C)c(-c3noc(C)n3)c(C)c2)nn1", "agent": "Enterovirus", "cell line": "HeLa", "method": "cytopathic effect", "read-out": "EC50", "value": "0.033–0.659 µg/mL"}
{"compound": "CNC(=O)CC1NC(=O)c2nc(sc2COC)C(C(C)C)NC(=O)c2csc(n2)-c2ccc(-c3nc(C4=NC(C(=O)N5CCCC5C(N)=O)CO4)cs3)nc2-c2csc(n2)-c2csc(n2)C(C(O)c2ccccc2)NC(=O)CNC(=O)c2nc1sc2C", "agent": "Enterococcus faecium", "strain or isolate": "UC12712 (vancomycin-resistant)", "read-out": "MIC", "value": "4 µg/mL"}
{"compound": "CN(C)c1cc(NC(=O)CNC(C)(C)C)c(O)c2c1C[C@H]1C[C@H]3[C@H](N(C)C)C(=O)C(C(N)=O)=C(O)[C@@]3(O)C(=O)C1=C2O", "agent": "Enterococcus faecalis", "strain or isolate": "20 strains (vancomycin-resistant)", "read-out": "MIC50", "value": "0.12 µg/mL"}
{"compound": "CC(=O)NC[C@H]1CN(c2ccc(-c3nsc(C#N)n3)c(F)c2)C(=O)O1", "agent": "Enterococcus faecalis", "strain or isolate": "UC9217", "read-out": "MIC", "value": "8 µg/mL"}
{"compound": "COc1ccc(-c2ccc(C3=CC(CNC(C)=O)OC3=O)cc2)ccc1=O", "agent": "Enterococcus faecalis", "strain or isolate": "UC9217", "read-out": "MIC", "value": "1 µg/mL"}
{"compound": "O=C(NNc1ccccn1)Nc1cc(C(F)(F)F)cc(C(F)(F)F)c1", "agent": "Enterococcus faecalis", "strain or isolate": "STD44", "read-out": "MIC", "value": ">300 µM"}
{"compound": "Cc1c(NC2CC2)c(F)cc2c(=O)c(C(=O)O)cn(-c3cc(N)c(F)cc3F)c12", "agent": "Enterococcus faecium", "strain or isolate": "ATCC51519", "read-out": "MIC", "value": "8 µg/mL"}
{"compound": "Cc1cc(OCCCc2ccc(F)nn2)cc(C)c1-c1noc(C(F)(F)F)n1", "agent": "Enterovirus", "cell line": "HeLa", "method": "cytopathic effect", "read-out": "EC50", "value": "0.033–0.659 µg/mL"}
{"compound": "Cc1cc(CCCCCOc2c(Cl)cc(C3=NCCO3)cc2Cl)on1", "agent": "Enterovirus", "strain or isolate": "NANCY (CVB3)", "cell line": "VERO", "method": "plaque count", "read-out": "EC50", "value": ">2.5 µg/mL"}
{"compound": "Cc1c(NC(C)C)c(F)cc2c(=O)c(C(=O)O)cn(-c3cc(N)c(F)cc3F)c12", "agent": "Enterococcus faecium", "strain or isolate": "W1418", "read-out": "MIC", "value": "64 µg/mL"}
{"compound": "COc1ccc(-c2ccc(N3CC(CNC(C)=O)CC3=O)cc2)ccc1=O", "agent": "Enterococcus faecalis", "strain or isolate": "UC9217", "read-out": "MIC", "value": ">64 µg/mL"}
{"compound": "CC(=O)NC[C@H]1CN(c2ccc(N(C)C(=O)c3ccno3)c(F)c2)C(=O)O1", "agent": "Enterococcus faecium", "strain or isolate": "UC12712 (vancomycin-resistant)", "read-out": "MIC", "value": "64 µg/mL"}
{"compound": "O=C(NNC(=O)Nc1ccccc1C(F)(F)F)Nc1cc(C(F)(F)F)cc(C(F)(F)F)c1", "agent": "Enterococcus faecalis", "strain or isolate": "STD44", "read-out": "MIC", "value": ">422 µM"}
{"compound": "CC(=O)NC[C@H]1CN(c2ccc(NC(=O)c3ccc([N+](=O)[O-])s3)c(F)c2)C(=O)O1", "agent": "Enterococcus faecium", "strain or isolate": "UC12712 (vancomycin-resistant)", "read-out": "MIC", "value": "1 µg/mL"}
{"compound": "O=C(O)NC[C@H]1CC(c2ccc(-n3ccnc3)c(F)c2)=NO1", "agent": "Enterococcus faecalis", "strain or isolate": "UC9217", "read-out": "MIC", "value": "4 µg/mL"}